## Library screen at single concentrations

Measurements from “University of Dundee, Small-Polar-MMV Screening Library” (2021), ChEMBL document CHEMBL3988442.

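Phenotypic screen: M. tuberculosis growth, glucose 7H9 medium, 3 days; the read-out is not stated. Tested at 500 µM. Direction is inferred from retests: higher values go with more growth inhibition. Of about 18,000 compounds tested this way, about 1,400 (7.9%) reached 50% or more in at least one test.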

Results are given as percent effect. The record does not define 0% and 100%; most values in the screen are far below 50% and negative numbers occur (in some assays of this library far below -100). Many other results are left out here, so strong results are more common than in the screen.

O=C(c1cccc2ncccc12)N1CCCC1 gave -3.396%.
Cc1cnn(CCNCc2cccc3c2OCCO3)c1 gave 21.97%.
CC(C)(C)C(=O)CNC(=O)c1ccc[nH]1 gave 7.003%.
COc1ncc(C)cc1NC(=O)c1ccc(C)[nH]c1=O gave -11.35%.
COc1ccccc1OCC(C)N (stereo not drawn) gave 6.391%.
O=S(=O)(NC1CCCC1)c1cncc(Cl)c1 gave 69.36%.
NC(c1cncc(Br)c1)C1CC1 (stereo not drawn) gave 50.37%.
CCn1cc(N)cn1 gave 22.46%.
COCCNC(C)COC (stereo not drawn) gave 2.304%.
CC(C)COc1ccc(C(=O)N(C)CC(N)=O)cn1 gave 3.122%.
OC1(CN2CCCC2)CCCN(Cc2ccncc2)C1 (stereo not drawn) gave 11.8%.
CC(C)CCNC(=O)Cn1c(=O)oc2ccccc21 gave 67.93%.
COc1c(Cl)cc(NC(=O)C2COCCN2)cc1Cl (stereo not drawn) gave 69.66%.
COc1c(C)cc(Br)cc1C(=O)Nc1nnn(C)n1 gave 69.74%.
NCCOCc1ccc(Cl)cc1 gave 40.34%.
Cc1ccccc1NC(=O)Cn1cccn1 gave -10.15%.
CCn1ccnc1CNCC1CCN(CC(C)O)CC1 (stereo not drawn) gave 14.47%.
CN1CCN(c2ccnc(SCC(N)=O)n2)CC1 gave 90.51%.
OC1(c2nc(-c3cnccn3)no2)CCCCC1 gave 0.5168%.
COc1cccc(CN2CCNCC2)c1OC gave 15.23%.
CCNCCNC(=O)CCc1ccc(F)cc1 gave 2.245%.
CC(C)NC(=O)c1nc(-c2ccc(F)cc2)no1 gave 6.868%.
NCCNS(=O)(=O)c1ccccc1 gave 6.508%.
N#Cc1nc(NCCSCCCO)ccc1Cl gave 75.58%.
O=C(Cc1nc(-c2cccnc2)no1)NCC(F)(F)F gave -5.346%.
NC1CN(S(=O)(=O)c2ccc3c(c2)OCCO3)C1 gave -4.421%.
CCCNc1nc(C)c(C(C)=O)s1 gave 23.61%.
CCc1nn(C)c(CC)c1S(=O)(=O)N1CCCC1CN (stereo not drawn) gave 24.52%.
COCc1nn(Cc2csc(C(C)C)n2)c(=O)o1 gave 71%.
CC(C)C(=O)N1CCC(NC(=O)c2ccncc2)CC1 gave 40.06%.
COCc1cc(C)nc(SCC#N)c1C#N gave 4.46%.
COC1CCN(C(=O)CCc2csc(C)n2)CC1 gave 36.18%.
Cc1cccc(OCC(=O)NC2CCCNC2)c1 (stereo not drawn) gave 32.84%.
O=C(Nc1ncccn1)c1ccc(Br)o1 gave 33.17%.
CCC(C)(C)NCc1nnnn1C1CC1 gave -1.67%.
CCCC1SCCN1C(=O)c1cnc2n[nH]c(C)c2c1 (stereo not drawn) gave 13.68%.
COc1cc(CN)cc(Br)c1OC gave 58.81%.
CN(C)S(=O)(=O)N1CCCC1c1ccccc1Br (stereo not drawn) gave 80.91%.
Brc1cncc(C2CNCCO2)c1 (stereo not drawn) gave 35.81%.
COc1cc(OC)c(NC(=O)Cn2ccnc2)cc1Cl gave 72.67%.
Cc1noc(C)c1C(=O)NCCN1CCCCCC1=O gave 12.74%.
O=C(COc1ccc(F)cc1)Nc1ccon1 gave 65.69%.
C[C@@H](N)C(=O)NCc1cc2cc(Cl)ccc2[nH]1 gave 22.03%.
NCC(=O)N(CC1CCCCC1)C1CC1 gave 15.01%.
O=C(c1cnc(O)cn1)N1CCOC2(CCCC2)C1 gave 6.888%.
CCNCCNC(=O)Cc1ccc(F)cc1F gave -0.6015%.
COc1ccc(CNCCn2cccn2)cc1OC gave 13.51%.
O=C(NCc1nc2c(s1)CCCC2)C1CCOC1 (stereo not drawn) gave 27.52%.
NC1CCN(c2ncccc2F)C1 (stereo not drawn) gave 73.17%.
Cc1nn(C)c(C)c1C(C)NC(=O)c1cccnc1 (stereo not drawn) gave -3.12%.
Nc1ccc(N2CCNCC2=O)cn1 gave -107.4%.
CS(=O)(=O)NCCC(=O)Nc1cccc2c1CCCC2 gave 4.091%.
Cc1cccn2cc(CCNS(C)(=O)=O)nc12 gave -3.124%.
CCc1noc(C)c1C(=O)NCCN(C)C gave 7.39%.
CS(=O)(=O)Nc1ccc(Cl)c(C(=O)N2CCOCC2)c1 gave 8.864%.
CC(C)CS(=O)(=O)N1CCC(N)CC1 gave 33.14%.
CCOC(=O)c1sc(N)c(C#N)c1CN1CCOCC1 gave 14.61%.
NCCc1n[nH]c(=O)n1CCc1ccccc1 gave 11.21%.
c1cn(C2CCNCC2)nn1 gave 97.7%.

Repeated from the top, 7 entries:

SMILES	effect
O=C(c1cccc2ncccc12)N1CCCC1	-3.396%
Cc1cnn(CCNCc2cccc3c2OCCO3)c1	21.97%
CC(C)(C)C(=O)CNC(=O)c1ccc[nH]1	7.003%
COc1ncc(C)cc1NC(=O)c1ccc(C)[nH]c1=O	-11.35%
COc1ccccc1OCC(C)N (stereo not drawn)	6.391%
O=S(=O)(NC1CCCC1)c1cncc(Cl)c1	69.36%
NC(c1cncc(Br)c1)C1CC1 (stereo not drawn)	50.37%